Measured values as given in ChEMBL document CHEMBL1121863, “New analgesic drugs derived from phencyclidine” (1981).

The molecules below were run on Trypanosoma cruzi (assay: In vitro inhibitory activity against growth of Trypanosoma cruzi at a concentration of 30 uM; 20-40%).

Q: Which growth inhibition (GI) does the source give for `CC(=O)OCC(CO)OC(COC(C)=O)n1cnc2c(N)nc(N)nc21` (centres undefined) here?
A: The growth inhibition (GI) was 40%.

Q: Which growth inhibition (GI) does the source give for `CC(=O)OCC(CCl)OC(COC(C)=O)n1cnc2c(N)ncnc21` (centres undefined) here?
A: The growth inhibition (GI) was 40%.

Q: For `CCC(COC(C)=O)OC(COC(C)=O)n1cnc2c(N)ncnc21` (centres undefined), which growth inhibition (GI) is on record?
A: The growth inhibition (GI) was 40%.

Q: `CC(=O)OCC(CO)OC(COC(C)=O)n1cnc2c(F)nc(N)nc21` (centres undefined) was tested. Which growth inhibition (GI) did it give?
A: The growth inhibition (GI) was 40%.
